Details: Liquid; for mass density / viscosity: 101.33 kPa; for viscosity: Capillary tube (Ostwald / Ubbelohde) method

ClP(Cl)Oc1ccccc1 [phenyl phosphorodichloridite]
Details | mass density [kg/m3] | vapor or sublimation pressure [kPa] | viscosity [mPa·s]
293.27 K | 1353.1 | – | 2.206
303.25 K | 1344.2 | – | 1.835
313.2 K | 1333 | – | 1.554
323.18 K | 1320.4 | – | 1.338
333.06 K | 1293.4 | – | 1.155
343.2 K | 1279.7 | – | 1.016
353.2 K | 1262.2 | – | 0.9
363.18 K | 1247 | – | 0.8
363.25 K | – | 1.47 | –
368.85 K | – | 1.93 | –
373.06 K | 1229.8 | – | 0.721
373.36 K | – | 2.39 | –
377.56 K | – | 2.89 | –
381.85 K | – | 3.49 | –
383.26 K | 1214.1 | – | 0.655
386.24 K | – | 4.22 | –
390.85 K | – | 5.11 | –
393.26 K | 1196.5 | – | 0.599
395.53 K | – | 6.19 | –
398.76 K | – | 7.04 | –
403.6 K | – | 8.5 | –
403.66 K | 1177.7 | – | 0.542
408.48 K | – | 10.23 | –
412.85 K | – | 12.02 | –
413.47 K | 1161.2 | – | 0.501
417.95 K | – | 14.44 | –
422.05 K | – | 16.67 | –
423.25 K | 1143.1 | – | 0.467
427.13 K | – | 19.74 | –
431.14 K | – | 22.69 | –
434.75 K | – | 25.54 | –
439.67 K | – | 29.9 | –
443.56 K | – | 33.78 | –
448.54 K | – | 39.36 | –
453.36 K | – | 45.46 | –
458.47 K | – | 52.77 | –
461.57 K | – | 57.67 | –
466.53 K | – | 66.28 | –
471.06 K | – | 75.05 | –
475.71 K | – | 88.11 | –
480.79 K | – | 101.33 | –

Source: the NIST ThermoML archive (doi:10.1021/je8000427)
